In patent US5495006:

Molecular target: HIV-1 Tat full-length (86 aa) (Human immunodeficiency virus 1) (UniProt P04608)
Assay: competition with a labelled probe
Conditions: linker B (triethylene glycol) replaces 6-nt loop between the two strands; competes wild-type TAR 27-mer off Tat completely at 1:1 conjugate:Tat; Tat 100 nM; purified recombinant protein; protein details: American Bio-Technologies, Inc.; label: 5'-32P; variant of TAR 27-mer (oligomer 4)

GGAGAUCUGAGCGCUCUCUCC [TAR conjugate 5B]
binding result: binds

The exact form of at least one protein or probe is not confirmed.
